Screening data, single-dose tests

Mtb glucose medium: 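Whole-cell growth test on Mycobacterium tuberculosis, read after 3 days in glucose-containing 7H9 medium; the read-out is not stated. Tested at 500 µM. The record gives no direction; compounds that gave an IC50 in retests scored well above the rest, so higher reads as more growth inhibition. Size under these conditions: about 18,000 compounds, about 1,400 of them at 50% or above in at least one test.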
Mtb cholesterol medium: 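Growth of Mycobacterium tuberculosis over 4 days (cholesterol / DPPC medium with tyloxapol); the read-out is not stated. Tested at 500 µM. Higher reads as more growth inhibition (inferred: compounds with an IC50 in retests scored well above the rest). Of about 18,000 compounds tested this way, about 900 (5%) reached 50% or more in at least one test.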

Results are given as percent effect.
The controls that fix the scale are not given in the record; negative values are as filed.
This is part of a subset picked to be rich in strong results.

Result for COc1cccc(Cl)c1Cn1cc(Cl)c(=O)[nH]c1=O was Mtb glucose medium: -11.2%. Result for N#Cc1c(N)nc2c(c1-c1ccccc1)C(=O)CCC2 was Mtb cholesterol medium: -12.45%. O=C(Nc1cccc(Cl)c1)C1CCCN1 (stereo unspecified) gave Mtb glucose medium: 42.03%; Mtb cholesterol medium: 51.77%. COC(=O)CSCC(=O)Nc1cc(F)cc(F)c1 read Mtb glucose medium: 65.44%; Mtb cholesterol medium: 53.44%. For COCc1noc(CCNC(=O)[C@H]2CCC[C@H](O)C2)n1 the result was Mtb glucose medium: -1.582%.

COc1ccc(-c2noc(Cn3cncn3)n2)cn1 read Mtb glucose medium: 9.331%; Mtb cholesterol medium: 16.25%. Result for COCCS(=O)(=O)NC1CCCCC1 was Mtb glucose medium: 7.06%. For CN1CCC(C)(CN)CC1 the result was Mtb glucose medium: -12.46%. O=C(NC1CC1)c1cccc(CNc2ccccn2)c1 gave Mtb glucose medium: 62.27%; Mtb cholesterol medium: 50.34%. With Cc1cc(C)c(CNC(=O)c2ccc(C)o2)c(=O)[nH]1 the screen gave Mtb glucose medium: -0.6058%.

For OCCC1CCN(Cc2ccccc2)C1 (stereo unspecified) the result was Mtb cholesterol medium: 50.7%. With COCCN(C)Cc1ccc(C(=O)NC2CC2)cc1 the screen gave Mtb glucose medium: -0.2487%. CC(C)(C)CC(=O)NCCS(=O)(=O)N1CCSCC1 read Mtb glucose medium: 5.053%; Mtb cholesterol medium: 1.826%. Result for CC(C)(N)c1nnc[nH]1 was Mtb glucose medium: 6.183%. With CN(C)C(=O)c1cccc(S(C)(=O)=O)c1 the screen gave Mtb glucose medium: 16.14%.

For O=C(NC1CC1)c1ccc(CNC2CC2)cc1 the result was Mtb glucose medium: -0.9977%; Mtb cholesterol medium: 14.58%. Result for O=S1(=O)CCN2CCNCC2C1 (stereo unspecified) was Mtb glucose medium: 18.85%. CC(C)(C)OC(=O)N1CCN(c2ccnc(N)c2)CC1 read Mtb glucose medium: 59.42%. For CCSCC(=O)N(C)Cc1nc(C(C)C)no1 the result was Mtb glucose medium: 16.75%; Mtb cholesterol medium: -4.048%. COc1ccccc1-c1cc(CO)[nH]n1 gave Mtb cholesterol medium: 20.61%.

With CC(C)N(C)C(=O)C(N)c1ccccc1 (stereo unspecified) the screen gave Mtb glucose medium: 7.1%. CC1(O)CN(S(=O)(=O)CCCC#N)C1 gave Mtb cholesterol medium: 0.05113%. Result for OCCCNC1(c2nccs2)CCCC1 was Mtb cholesterol medium: -7.378%. Result for Cc1cc(CN2CCN(C(=O)N(C)C)CC2)on1 was Mtb glucose medium: 14.8%; Mtb cholesterol medium: 5.923%. COc1ccc(C(N)C2CCOCC2)cc1 (stereo unspecified) gave Mtb glucose medium: -1.76%.

With NCc1ccc(CN2CCC(O)C2)cc1 (stereo unspecified) the screen gave Mtb glucose medium: -5.612%. With CN1CCC(N(C)C(=O)Cc2ccc(F)cc2)CC1 the screen gave Mtb glucose medium: -9.591%. CO[C@H]1CNC[C@H]1OC read Mtb glucose medium: 0.03363%.

Measurements from “University of Dundee, Small-Polar-MMV Screening Library” (2021), ChEMBL document CHEMBL3988442.